Laboratory results reported in US20230192660A1 (priority 2020, published 2023).

Target: mature SARSCoV2 M^pro (Severe acute respiratory syndrome coronavirus 2, UniProt P0DTD1)
Assay: biochemical

CC(C)(C)CC(=O)N[C@H](C(=O)N1C[C@H]2[C@@H]([C@H]1C(=O)NC(C[C@@H]1CCNC1=O)C(=O)C(N)=O)C2(C)C)C(C)(C)C (some centres unmarked) [ML1001]
IC50 (IC50 SARSCov2 Mpro, 20 nM SARSCoV2 Mpro, 30 min incubation): 20 nM
IC50 (IC50 against SARS-CoV-2 Mpro, Example 6): < 50 nM
